These results are taken from the supplement of paper PMC3578754.

Compound in test [1]: CCC[C@@]1(CCc2ccccc2)CC(O)=C([C@H](CC)c2cccc(NS(=O)(=O)c3ccc(C(F)(F)F)cn3)c2)C(=O)O1 [tipranavir]
Kind of test: fold change of IC50 against reference virus; higher = more resistant; Cell-culture drug susceptibility tests of virus bearing the protease of each isolate, gathered from many studies.

Compound in test [2]: CC(C)(C)NC(=O)[C@@H]1CN(Cc2cccnc2)CCN1C[C@@H](O)C[C@@H](Cc1ccccc1)C(=O)N[C@H]1c2ccccc2C[C@H]1O [indinavir]
The description is as above.

Compound in test [3]: CC(C)c1nc(CN(C)C(=O)N[C@H](C(=O)N[C@@H](Cc2ccccc2)C[C@H](O)[C@H](Cc2ccccc2)NC(=O)OCc2cncs2)C(C)C)cs1 [ritonavir]
The test is described as above.

Compound in test [4]: CC(C)(C)NC(=O)[C@@H]1C[C@@H]2CCCC[C@@H]2CN1C[C@@H](O)[C@H](Cc1ccccc1)NC(=O)[C@H](CC(N)=O)NC(=O)c1ccc2ccccc2n1 [saquinavir]
The test is described as above.

Compound in test [5]: Cc1c(O)cccc1C(=O)N[C@@H](CSc1ccccc1)[C@H](O)CN1C[C@H]2CCCC[C@H]2C[C@H]1C(=O)NC(C)(C)C [nelfinavir]
The test is described as above.

Compound in test [6]: Cc1cn([C@H]2C=C[C@@H](CO)O2)c(=O)[nH]c1=O [stavudine]
Kind of test: fold change of IC50 against reference virus; higher = more resistant. Here is the method:
(§1)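 Cell-culture drug susceptibility tests of virus bearing the reverse transcriptase of each isolate, gathered from many studies.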

Compound in test [7]: Cc1ccnc2c1NC(=O)c1cccnc1N2C1CC1 [nevirapine]
Described as above. The procedure: as §1

Compound in test [8]: Nc1ccn([C@H]2CC[C@@H](CO)O2)c(=O)n1 [zalcitabine]
Described as above. Here is the method:
as §1

Compound in test [9]: O=c1[nH]cnc2c1ncn2[C@H]1CC[C@@H](CO)O1 [didanosine]
The test is described as above. The procedure:
as §1

Compound in test [10]: O=C1Nc2ccc(Cl)cc2[C@@](C#CC2CC2)(C(F)(F)F)O1 [efavirenz]
The description is as above. Here is the method: as §1

Compound in test [11]: Nc1nc(NC2CC2)c2ncn([C@H]3C=C[C@@H](CO)C3)c2n1 [abacavir]
The description is as above. Here is the method: as §1

Compound in test [12]: CC(C)Nc1cccnc1N1CCN(C(=O)c2cc3cc(NS(C)(=O)=O)ccc3[nH]2)CC1 [delavirdine]
Described as above. The procedure: as §1

Compound in test [13]: Cc1cn([C@H]2C[C@H](N=[N+]=[N-])[C@@H](CO)O2)c(=O)[nH]c1=O [zidovudine]
The test is described as above. Here is the method: as §1

Fold change is the IC50 on the isolate divided by the IC50 on a reference virus; 1 = unchanged, higher = more resistant. Changes are given against the subtype B consensus. No active / inactive call. The values were gathered from many studies (numbered anew) with different assays, which the source does not name. Most viruses are clinical isolates; some are laboratory strains or clones with known resistance changes. Isolates with mixed residues are left out; stretches that were not sequenced show no change. Round top values that many isolates share are read here as limits; other very high values and 0.1 may be limits too. For some assays here: The protease changes I3V and N37S, insertions and deletions cannot be read from the source.

Turning to “HIV-1 isolate 1093 (protease changes: T12V E35D M36I R41K R57K Q61N, study 87)”, the “fold change of IC50 against reference virus” value (“fold change of IC50” below) in [1] is 1.6.
With “HIV-1 isolate 643 (protease changes: I13V K14R K20I M36I R41K I64M H69K K70R V82I L89M, study 87)”, in test [1], the “fold change of IC50” value was 0.6.
Take “HIV-1 isolate 1213 (protease changes: L10F E35D L63P A71V T74P I84V L90M I93L, study 124)”: the “fold change of IC50” value in test [1] was found to be 1.5.
As for “HIV-1 isolate 1207 (protease changes: I62V L63A, study 132)”, the “fold change of IC50” value in test [2], in [1] and in test [3] was 1 each time.
In the case of “HIV-1 isolate 921 (protease changes: L10I M46I R57G L63P I84V, study 132)”, the “fold change of IC50” value came to 125 in test [4], 6 in test [1], 80 in test [3] and 125 in test [5].
For “HIV-1 isolate 1072 (protease changes: I13V V32I L33F M36I K45I R57G A71V V82L I84V, study 76)”, the “fold change of IC50” value in test [1] was 28.
As to “HIV-1 isolate 1571 (protease changes: M36I R41K I93L, study 87)”, the “fold change of IC50” value in test [1] is 0.6.
As for “HIV-1 isolate 278 (protease changes: I13V K14R K20I E35D M36I R41K H69K V82I L89M, study 87)”, in test [1], the “fold change of IC50” value stood at 0.8.
Still for that read-out and setting: the value for “HIV-1 isolate 959 (protease changes: L10I I13V K14R I15V K20I E35Q M36I R41K R57K C67E H69K V82I L89M, study 87)” was 1.3.
Still for that read-out and setting: the value for “HIV-1 isolate 1536 (protease changes: T12S L19I M36I R41K L63V H69K T74S V77I L89M I93L, study 87)” was 0.8.
As for “HIV-1 isolate 1485 (protease changes: L10V I13V K14R L19P K20I M36I R41K L63P H69K K70R I72M L89M, study 87)”, in test [1], the “fold change of IC50” value is 1.
On the same count and under the same terms, the result for “HIV-1 isolate 629 (protease changes: I13V K14R K20I E35D M36I R41K H69K V82I L89M, study 87)” reads 0.7.
With “HIV-1 isolate 501 (protease changes: K70R, study 132)”, the “fold change of IC50” value in test [2], in test [1] and in test [3] was 1 throughout.
For the test system “HIV-1 isolate 1589 (protease changes: M46L I54V K70R V82A, study 132)”, the “fold change of IC50” value stood at 20 in test [2], 2 in test [1] and 32 in test [3].
In the case of “HIV-1 isolate 165 (protease changes: L10I I13V K14R K20I M36I R41K I64L H69K K70R L89M, study 87)”, the “fold change of IC50” value in test [1] is 0.6.
Still for that read-out and setting: the value for “HIV-1 isolate 1466 (protease changes: I13V K14R L19P K20I E35D M36I R41K H69K V82I L89M, study 87)” was 1.3; that for “HIV-1 isolate 145 (protease changes: I15V M36I R41K L63P H69K L89M I93L, study 87)” was 1.1.
Regarding “HIV-1 isolate 380 (protease changes: L10I K20R M36I I54V I62V L63A A71V V82A L90M, study 132)”, the “fold change of IC50” value in test [2] is 20; in [1], 3; in test [3], 67.
In the case of “HIV-1 isolate 1504 (protease changes: K14R K20R M36I I54V I62V A71V V82A L90M, study 132)”, the “fold change of IC50” value in test [1] worked out at 2; in test [3] it was 64.
On to “HIV-1 isolate 1049 (protease changes: I15V G17D K20R E35D M36I R41K R57K Q61N E65D I72T, study 87)”, for which the “fold change of IC50” value in [1] amounted to 2.1.
In the case of “HIV-1 isolate 1409 (protease changes: K14R M36I L63P, study 132)”, the “fold change of IC50” value in test [2], in test [1] and in test [3] was 1 in each case.
For “HIV-1 isolate 1542 (protease changes: I13V V32I L33F K45I R57G I84V, study 76)”, the “fold change of IC50” value in [1] was 7.
Turning to “HIV-1 isolate 1240 (protease changes: L33F R57G I84V, study 76)”, the “fold change of IC50” value in test [1] stood at 1.7.
Turning to “HIV-1 isolate 280 (protease changes: L10I I15V G17D L19W K20I M36I M46I I47V I54V I62V L63P A71V I72N G73T I84V I85V L90M I93L, study 124)”, the “fold change of IC50” value in [1] was 11.
With “HIV-1 isolate 373 (protease changes: L10I I13V K20I E35Q M36I R41K R57K L63S C67E H69K V82I L89M, study 87)”, the “fold change of IC50” value in [1] amounted to 2.
As for “HIV-1 isolate 690 (reverse transcriptase changes: M41L M184V G196E T200K, study 28)”, the “fold change of IC50” value in [6] amounted to 0.9; in test [7] it was 0.7; in test [8], 1.9; in test [9], 1.4; in test [10], 0.2; in test [11], 4.3. Also, the “fold change of IC50” value in test [12] was found to be 0.4; in test [13], 0.8.
“HIV-1 isolate 556 (reverse transcriptase changes: K102Q S162C M184V K277R, study 110)”: the “fold change of IC50” value in test [6] worked out at 0.8; in [7], 0.6; in test [8] it was 1.4; in test [9], 0.9; in [10], 0.6; in test [11], 3.8. Besides, the “fold change of IC50” value in [12] was 0.6; in [13], 0.4.
Regarding “HIV-1 isolate 1112 (protease changes: I13A K14R K20I M36I N37D R41K H69K L89I, study 87)”, the “fold change of IC50” value in test [1] is 1.
Regarding “HIV-1 isolate 1393 (reverse transcriptase changes: R83K M184V R211K, study 28)”, the “fold change of IC50” value amounted to 0.8 in [6]; 0.5 in test [7]; 1.7 in test [8]; 1.3 in test [9]; 0.5 in test [10]; 2.8 in test [11]. For the same test system, the “fold change of IC50” value came out at 0.9 in test [12] and 0.5 in test [13].
Turning to “HIV-1 isolate 534 (reverse transcriptase changes: M41L K102Q S162C T215Y K277R, study 110)”, the “fold change of IC50” value in test [6] is 1.5; in test [7], 1; in [8], 1; in test [9], 0.9; in test [10] it was 0.5; in [11], 2.6. Further, the “fold change of IC50” value is 0.3 in test [12] and 11.2 in test [13].
Turning to “HIV-1 isolate 770 (reverse transcriptase changes: M41L E44D E53D A98S K122A E169D D177E M184V G196E T200A Q207E L210W T215Y, study 112)”, the “fold change of IC50” value came to 1.7 in [6]; 0.5 in test [7]; 2.4 in test [8]; 1.5 in test [9]; 0.3 in test [10]; 7.7 in [11]. Besides, the “fold change of IC50” value in test [12] came to 0.2; in [13], 4.4.
As to “HIV-1 isolate 1496 (protease changes: I13V I15V R41K I62V I64V V77I, study 122)”, the “fold change of IC50” value is 100 in test [2], 3.6 in test [1], 100 in test [3] and 100 in test [5].
On to “HIV-1 isolate 651 (reverse transcriptase changes: K20R M41L K122E I135T M184V T200A R211K T215Y A272P I293V E297K, study 112)”, for which the “fold change of IC50” value in [6] turned out to be 1.6; in test [7], 0.9; in [8], 2.2; in test [9], 1.4; in [10] it was 0.6; in test [11] it was 6.7. The “fold change of IC50” value stood at 0.6 in test [12] and 6.5 in test [13].
On to “HIV-1 isolate 472 (protease changes: none, study 122)”, for which the “fold change of IC50” value in test [1] is 1.
On to “HIV-1 isolate 1477 (protease changes: L10I I13V K20I E35Q M36I N37D R41K K43R R57K C67E H69K V82I L89M, study 87)”, for which the “fold change of IC50” value in test [1] stood at 0.8.
Regarding “HIV-1 isolate 112 (reverse transcriptase changes: T39A M41L K43A E44D D67N T69D V118I K122E I142V M184V Q207E L210W R211K T215Y I293V E297A, study 112)”, the “fold change of IC50” value is 3.3 in [6]; 0.5 in test [7]; 3.1 in test [8]; 2.1 in test [9]; 0.3 in test [10]; 9.6 in test [11]. Moreover, the “fold change of IC50” value in [12] came to 0.3; in test [13], 35.4.
Regarding “HIV-1 isolate 250 (reverse transcriptase changes: V35R I142V K173Q V245T, study 40)”, the “fold change of IC50” value turned out to be 2 in test [6]; 3 in test [7]; 1 in [8]; 1 in test [9]; 1 in test [10]; 1 in [11]. In addition, the “fold change of IC50” value was found to be 8 in [12] and 22 in test [13].
